Pooled drug test results. Numbers come from NIAID ChemDB, via PubChem.

Shared fields: tests in culture; species: Mycobacterium tuberculosis

An empty or dashed field is not shown.

SMILES,dose,cell line,method,strain,mutations,endpoint,result
CC(C)OC(=O)CSc1nc(N)c2c3c(sc2n1)CC(C(C)(C)C)CC3,,,MTT / visual reading,H37Rv,,MIC,3.1 µg/mL
FC(F)(F)Oc1ccc(CCNc2ncnc3cc(Cl)ccc23)cc1,,,luminescence,H37Rv,,MIC50,>20 µM
Cc1ccc(-n2c(=O)oc3cc(C)ccc3c2=O)cc1,,,,CNCTC MY331/88,,MIC,62 µM
FC(F)(F)c1cccnc1Oc1ccc(Nc2ncnc3ccccc23)cc1,,,luminescence,H37Rv,,MIC50,>20 µM
CN[C@@H]1[C@H](O[C@H]2[C@H](O[C@H]3[C@H](O)[C@@H](O)[C@H](N=C(N)N)[C@@H](O)[C@@H]3N=C(N)N)O[C@@H](C)[C@]2(O)C=O)O[C@@H](CO)[C@H](O)[C@H]1O,,,,50194,,MIC,≥2 µg/mL
COc1ccc2oc(=O)n(-c3ccc(C#N)cc3)c(=O)c2c1,,,,CNCTC MY331/88,,MIC,32 µM
C=CNC(=O)NC(=O)CSc1nnc(-c2ccccc2NC(=O)C(F)(F)F)c(=O)[nH]1,12.5 µg/mL,,BACTEC,H37Rv,,inhibition,0%
FC(F)(F)c1cnc(Oc2ccc(Nc3ncnc4ccccc34)cc2)c(Cl)c1,,,luminescence,H37Rv,,MIC50,>50 µM
Cc1nccn1Cc1nc(-c2ccc(C(F)(F)F)cc2)no1,,,resazurin,Clinical isolate,,MIC,16 µg/mL
Fc1cccc2c(Nc3ccc(Oc4ccc(C(F)(F)F)cc4)cc3)ncnc12,,,luminescence,H37Rv,,MIC50,>50 µM
CC1COc2c(N3CCN(C)CC3)c(F)cc3c(=O)c(C(=O)O)cn1c23,,,,ATCC 35823,,MBC,1 µg/mL
CCCCNc1ccc2nnc(C)n2n1,12.5 µg/mL,,BACTEC,H37Rv,,inhibition,0%
CO/C(C)=C1/NC(=O)[C@H]([C@@H](C)O)NC(=O)c2csc(n2)-c2cc(O)c(-c3nc(C(=O)NCCCN4CCOCC4)cs3)nc2-c2csc(n2)[C@@H]2COC(=O)c3c4c5c(cccc5n3O)COC(=O)[C@@H](O[C@H]3C[C@](C)(O)[C@H](N(C)C)[C@H](C)O3)[C@@H](OC4)[C@H](NC(=O)c3csc1n3)c1nc(cs1)C(=O)N2,,,broth dilution,Clinical isolate 13923,,MIC,≤25 µM
CO[C@H]1/C=C/O[C@@]2(C)Oc3c(C)c(O)c4c(O)c(c(/C=N/N5CCN(C)CC5)c(O)c4c3C2=O)NC(=O)/C(C)=C\C=C\[C@H](C)[C@H](O)[C@@H](C)[C@@H](O)[C@@H](C)[C@H](OC(C)=O)[C@@H]1C,,,,9133,,MIC,≥2 µg/mL
CC1CN(c2cc3c(cc2F)c(=O)c(C(=O)O)cn3-c2ccc(F)cc2F)CCN1,,,,ATCC 35826,,MBC,2 µg/mL
CCOc1cccc(C(=O)N(Cc2ccccc2)C2CCS(=O)(=O)C2)c1,,,resazurin,Clinical isolate,,MIC,4 µg/mL
FC(F)(F)Oc1ccc(CNc2ncnc3ccsc23)cc1,,,luminescence,H37Rv,,MIC50,>50 µM
CC(=O)Nc1cc2nc3ccc(C)cc3oc-2c(C)c1=O,12.5 µg/mL,,BACTEC,H37Rv,,inhibition,88%
C=C(NC(=O)c1csc(-c2nc3c(cc2O)-c2nc(cs2)C(=O)N[C@@H]([C@@H](C)O)C(=O)N/C(=C(\C)OC)c2nc(cs2)C(=O)N[C@@H]2c4nc(cs4)C(=O)N[C@@H](COC(=O)c4c5c6c(cccc6n4O)COC(=O)[C@@H](O[C@H]4C[C@](C)(O)[C@H](N(C)C)[C@H](C)O4)[C@H]2OC5)c2nc-3cs2)n1)C(N)=O,,,broth dilution,Clinical isolate 1868,Rifampicin- and isoniazid-resistant,MIC,≤25 µM
O=c1oc2ccc(F)cc2c(=O)n1-c1ccc(F)cc1,,,,CNCTC MY331/88,,MIC,31 µM
FC(F)(F)c1ccc(Oc2ccc(Nc3ncnc4ccsc34)cc2)cc1,,,luminescence,H37Rv,,MIC50,>20 µM
O=c1oc2ccc(Cl)cc2c(=O)n1-c1ccc(C(F)(F)F)cc1,,,,CNCTC MY331/88,,MIC,2 µM
CNc1nc(N2CCCC2)nc(-n2cnc(SCC(=O)OC)n2)n1,,,resazurin,18b,,MIC,16 µg/mL
CC[C@H]1OC(=O)[C@H](C)[C@@H](O[C@H]2C[C@@](C)(OC)[C@@H](O)[C@H](C)O2)[C@H](C)[C@@H](O[C@@H]2O[C@H](C)C[C@H](N(C)C)[C@H]2O)[C@](C)(O)C[C@@H](C)C(=O)[C@H](C)[C@@H](O)[C@]1(C)O,,,,H37Rv,,MBC,>8 µg/mL
CC1COc2c(N3CCN(C)CC3)c(F)cc3c(=O)c(C(=O)O)cn1c23,,,,900241,,MIC,0.75 µg/mL
CCCC/C(C)=N/NC(=S)SC,,,BACTEC,H37Rv,,MIC bound,≤128 µg/mL
Clc1ccc(-c2nc3ccc(Nc4ncnc5ccccc45)cc3o2)cc1,,,luminescence,H37Rv,,MIC50,>50 µM
COc1ccc(-n2c(=O)oc3ccc(F)cc3c2=O)cc1,,,,CNCTC MY331/88,,MIC,31 µM
O=C1OC(c2ccccc2)C(=O)N1Cc1ccccc1,,,BACTEC,H37Rv,,MIC bound,≤12.5 µg/mL
CSc1nc(N)c2c3c(sc2n1)CC(C(C)(C)C)CC3,,,MTT / visual reading,H37Rv,,MIC,25 µg/mL
Cn1c2c(c(=O)c3cc(O)ccc31)CC(O)C(C)(C)O2,12.5 µg/mL,,BACTEC,H37Rv,,inhibition,19%
FC(F)(F)c1ccc(CNc2ncnc3ccccc23)c(N2CCOCC2)c1,,,luminescence,H37Rv,,MIC50,>10 µM
CNC(=O)C1C2CC3OC(=O)C1C3C2,12.5 µg/mL,,BACTEC,H37Rv,,inhibition,5%
CCOc1ccc(S(=O)(=O)[C@H]2CS(=O)(=O)C[C@@H]2NCC(C)C)cc1,,,resazurin,Clinical isolate,,MIC,2 µg/mL
COc1ccc2c(c1OC)C1=C(C2=O)c2cc3c(cc2CCN1)OCO3,12.5 µg/mL,,BACTEC,H37Rv,,inhibition,19%
CCCCCc1cc(OC)c2ccccc2n1,,,,MT3,,MIC,42 µg/mL
CCN(CC)CCNc1ccc2nnn3c4ccc([N+](=O)[O-])cc4c(=O)c1c23,,,BACTEC,H37Rv,,MIC,12.5 µg/mL
Cc1nc(NCCc2ccc(OC(F)(F)F)cc2)c2ccccc2n1,,,luminescence,H37Rv,,MIC50,6.7 µM
CCCCSC1=C(C#N)C(=O)NC(C)S1,,,resazurin,Clinical isolate,,MIC,16 µg/mL
CO[C@H]1/C=C/O[C@@]2(C)Oc3c(C)c(O)c4c(O)c(c(/C=N/N5CCN(C)CC5)c(O)c4c3C2=O)NC(=O)/C(C)=C\C=C\[C@H](C)[C@H](O)[C@@H](C)[C@@H](O)[C@@H](C)[C@H](OC(C)=O)[C@@H]1C,,,broth dilution,Clinical isolate 565,Multidrug-resistant,MIC,>10 µM
CO[C@H]1/C=C/O[C@@]2(C)Oc3c(C)c(O)c4c(O)c(c5c(c4c3C2=O)NC2(CCN(CC(C)C)CC2)N=5)=NC(=O)/C(C)=C\C=C\[C@H](C)[C@H](O)[C@@H](C)[C@@H](O)[C@@H](C)[C@H](OC(C)=O)[C@@H]1C,,,,2235 (rifampicin-susceptible),,MIC,≤0.062 µg/mL
COc1ccc2c(=O)n(-c3ccc(F)cc3)c(=O)oc2c1,,,,CNCTC MY331/88,,MIC,32 µM
C[C@H]1COc2c(N3CCN(C)CC3)c(F)cc3c(=O)c(C(=O)O)cn1c23,,,,ATCC 35827,,MBC,1 µg/mL
CC(C)(C)c1ccc(CCNc2ncnc3ccsc23)cc1,,,luminescence,H37Rv,,MIC50,>10 µM
COc1ccc(CCc2cc(OC)c3ccccc3n2)cc1OC,,,,MT1,,MIC,39 µg/mL
O=C(O)c1nc(NCCc2ccc(OC(F)(F)F)cc2)c2ccc(F)cc2n1,,,luminescence,H37Rv,,MIC50,>20 µM
O=C(Cc1ccccc1)NNc1nc(NNC(=O)c2ccncc2)nc(Nc2ccc([N+](=O)[O-])cc2)n1,0.5 µM,,BACTEC,,,inhibition,0%
FC(F)(F)c1cccc(Oc2ccc(CNc3ncnc4ccccc34)cc2)c1,,,luminescence,H37Rv,,MIC50,>20 µM
COC(=O)C1CP2(C)(C)N(C)C(=O)N2C1(c1ccccc1)c1ccccc1,,,BACTEC,H37Rv,,MIC,≥12.5 µg/mL
CC(C)(C)C1CCc2c(sc3nc(SCc4cscn4)nc(N)c23)C1,,,MTT / visual reading,H37Rv,,MIC,50 µg/mL
NNC(=O)c1ccncc1,,,,ATCC35801,,MIC,0.062 µg/mL
CCOC(=O)[C@H](C)Sc1nc(N)c2c3c(sc2n1)CC(C(C)(C)C)CC3,,,MTT / visual reading,H37Rv,,MIC,3.1 µg/mL
COc1ccc(N=Nc2c(-c3cccs3)nn(C(=S)SC)c2C(F)(F)F)cc1,,,BACTEC,H37Rv,,MIC bound,≤128 µg/mL
FC(F)(F)c1cccc(Oc2ccc(Nc3ncnc4ccccc34)cc2)c1,,,luminescence,H37Rv,,MIC50,>40 µM
C[C@H]1C[C@H](N)CN1c1cc2c(cc1F)c(=O)c(C(=O)O)cn2-c1ccc(F)cc1F,,,,ATCC 35828,,MBC,>8 µg/mL
O=c1oc2ccc(Cl)cc2c(=O)n1-c1ccc(Br)cc1,,,,CNCTC MY331/88,,MIC,4 µM
c1ccc(-c2cc3cc(Nc4ncnc5ccccc45)ccc3o2)cc1,,,luminescence,H37Rv,,MIC50,>20 µM
Cc1ccc(NC(=S)NC2CCCCC2)cc1Cl,,VERO,,H37Rv,,MIC,6.25 µg/mL
FC(F)(F)c1ccc(N2CCN(c3ccc(Nc4ncnc5ccccc45)cc3)CC2)nc1,,,luminescence,H37Rv,,MIC50,>20 µM
CN(C)c1ccc(N=Nc2ccc3c(c2)C(=O)c2ccccc2C3=O)cc1,,,resazurin,H37Rv,,MIC bound,>6.25 µg/mL
Fc1ccc2c(NCCc3ccccc3)ncnc2c1,,,luminescence,H37Rv,,MIC50,>50 µM
COC(=O)C1=CO[C@@H](C)[C@H]2Cn3ccc4c5ccccc5nc-4c3C[C@H]12,12.5 µg/mL,,BACTEC,H37Rv,,inhibition,20%
COc1ccc2c(=O)n(-c3ccccc3)c(=O)oc2c1,,,,CNCTC MY331/88,,MIC,16 µM
O=C(CCl)NC(=O)N(/N=C/c1ccco1)c1ccccc1,,,BACTEC,H37Rv,,MIC bound,>12.5 µg/mL
FC(F)(F)c1ccc(Oc2ccc(Nc3nc(C4CC4)nc4ccccc34)cc2)cc1,,,luminescence,H37Rv,,MIC50,>20 µM
CCOC(=O)C(Sc1nc(N)c2c3c(sc2n1)CC(C(C)(C)C)CC3)C(C)(C)C,,,MTT / visual reading,H37Rv,,MIC,>200 µg/mL
C[n+]1c(-c2ccc(/C=N\Nc3n[nH]c(=S)n3/N=C/c3ccc(-c4cn5ccsc5[n+]4C)cc3)cc2)cn2ccsc21.[Br-].[Br-],12.5 µg/mL,,BACTEC,H37Rv,,inhibition,29%
CC(C)(C)C1CCc2onc(C(=O)N3CCCCC3)c2C1,,,resazurin,Clinical isolate,,MIC,16 µg/mL
NNC(=O)c1ccncc1,,,broth dilution,Clinical isolate 30425,,MIC,≤1 µM
FC(F)(F)c1ccc(Oc2ccc(Nc3ncnc4ccccc34)cc2)cc1,,,luminescence,H37Rv,,MIC50,>20 µM
COc1ccc2c(=O)n(-c3ccc(Cl)cc3)c(=O)oc2c1,,,,CNCTC MY331/88,,MIC,32 µM
NC1=NS(=O)(=O)N=C(N)C1=Cc1ccc([N+](=O)[O-])o1,12.5 µg/mL,,BACTEC,H37Rv,,inhibition,100%
CC(=O)NC[C@H]1CN(c2ccc(N3CCN(c4ccc([N+](=O)[O-])s4)CC3)c(F)c2)C(=O)O1,,,,M-164,,MIC,0.5 µg/mL
CC(C)(C)c1cc(COc2c3sc(=S)sc3c(OCc3cc(C(C)(C)C)cc(C(C)(C)C)c3)c3sc(=S)sc23)cc(C(C)(C)C)c1,,,BACTEC,H37Rv,,MIC bound,>12.5 µg/mL
CO/C(C)=C1/NC(=O)[C@H]([C@@H](C)O)NC(=O)c2csc(n2)-c2cc(O)c(-c3nc(C(=O)NNC4CCN(C)CC4)cs3)nc2-c2csc(n2)[C@@H]2COC(=O)c3c4c5c(cccc5n3O)COC(=O)[C@@H](O[C@H]3C[C@](C)(O)[C@H](N(C)C)[C@H](C)O3)[C@@H](OC4)[C@H](NC(=O)c3csc1n3)c1nc(cs1)C(=O)N2,,,broth dilution,H37Rv,,MIC,≤10 µM
CCN1C[C@]2(C)CC[C@H](OC)[C@]34C1[C@H]([C@@H](O)[C@H]23)[C@@]1(O)CC[C@@H]2C[C@@H]4[C@@H]1C(=O)O2,,,BACTEC,H37Rv,,MIC,≥12.5 µg/mL
CC(C)=CCC/C(C)=C/CNc1ncnc2ccccc12,,,luminescence,H37Rv,,MIC50,>40 µM

The last 8 rows once more:

SMILES | dose | cell line | method | strain | mutations | endpoint | result
FC(F)(F)c1ccc(Oc2ccc(Nc3ncnc4ccccc34)cc2)cc1 |  |  | luminescence | H37Rv |  | MIC50 | >20 µM
COc1ccc2c(=O)n(-c3ccc(Cl)cc3)c(=O)oc2c1 |  |  |  | CNCTC MY331/88 |  | MIC | 32 µM
NC1=NS(=O)(=O)N=C(N)C1=Cc1ccc([N+](=O)[O-])o1 | 12.5 µg/mL |  | BACTEC | H37Rv |  | inhibition | 100%
CC(=O)NC[C@H]1CN(c2ccc(N3CCN(c4ccc([N+](=O)[O-])s4)CC3)c(F)c2)C(=O)O1 |  |  |  | M-164 |  | MIC | 0.5 µg/mL
CC(C)(C)c1cc(COc2c3sc(=S)sc3c(OCc3cc(C(C)(C)C)cc(C(C)(C)C)c3)c3sc(=S)sc23)cc(C(C)(C)C)c1 |  |  | BACTEC | H37Rv |  | MIC bound | >12.5 µg/mL
CO/C(C)=C1/NC(=O)[C@H]([C@@H](C)O)NC(=O)c2csc(n2)-c2cc(O)c(-c3nc(C(=O)NNC4CCN(C)CC4)cs3)nc2-c2csc(n2)[C@@H]2COC(=O)c3c4c5c(cccc5n3O)COC(=O)[C@@H](O[C@H]3C[C@](C)(O)[C@H](N(C)C)[C@H](C)O3)[C@@H](OC4)[C@H](NC(=O)c3csc1n3)c1nc(cs1)C(=O)N2 |  |  | broth dilution | H37Rv |  | MIC | ≤10 µM
CCN1C[C@]2(C)CC[C@H](OC)[C@]34C1[C@H]([C@@H](O)[C@H]23)[C@@]1(O)CC[C@@H]2C[C@@H]4[C@@H]1C(=O)O2 |  |  | BACTEC | H37Rv |  | MIC | ≥12.5 µg/mL
CC(C)=CCC/C(C)=C/CNc1ncnc2ccccc12 |  |  | luminescence | H37Rv |  | MIC50 | >40 µM

Inhibition is in % at the dose shown (toxicity tests: loss of growth or viability). MIC bound comes from a single tested concentration. MIC50, MIC90 and the like: level of inhibition, or share of isolates inhibited. Neighbouring rows are from separate reports.